Positions that govern dimerization of the HIV-1 5' RNA

The measurements come from Ye et al. 2022 (doi:10.1038/s41594-022-00746-2).

RNA: 5' end of the HIV-1 NL4-3 genome, made in vitro. Positions 1-437 read:
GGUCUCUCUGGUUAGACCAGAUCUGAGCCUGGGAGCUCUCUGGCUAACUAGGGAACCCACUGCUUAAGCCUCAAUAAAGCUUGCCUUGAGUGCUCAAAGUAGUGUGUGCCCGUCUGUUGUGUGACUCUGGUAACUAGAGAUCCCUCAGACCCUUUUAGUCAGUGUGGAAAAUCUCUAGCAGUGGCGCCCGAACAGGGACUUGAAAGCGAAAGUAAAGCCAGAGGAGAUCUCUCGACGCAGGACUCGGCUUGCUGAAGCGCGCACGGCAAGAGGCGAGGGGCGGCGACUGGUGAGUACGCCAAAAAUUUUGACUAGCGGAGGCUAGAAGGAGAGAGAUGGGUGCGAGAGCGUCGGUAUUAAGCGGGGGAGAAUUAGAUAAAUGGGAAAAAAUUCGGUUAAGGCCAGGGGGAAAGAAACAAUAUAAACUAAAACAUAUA

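Mutant RNA libraries with 1G, 2G or 3G starts, with or without cap, were folded at 37 °C for 30 min. Monomer and dimer bands were cut from native gels after folding in high salt (300 mM KCl, 5 mM MgCl2) or low salt (40 mM KCl, 0.1 mM MgCl2). Kdimer compares mutation frequencies in monomer and dimer, corrected for sequencing errors.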

Values are log2 Kdimer, the median over the changes at each position: higher means that changes there hinder dimer formation, below 0 that they favour it.
One numbering serves 1G, 2G and 3G.
A position is written with its base.

| position | domain | 3G uncapped high-salt | 3G uncapped low-salt |
|---|---|---|---|
| A21 | TAR | 0.13 | -0.12 |
| U22 | TAR | 0.05 | 0.07 |
| C23 | TAR | 0.00 | 0.02 |
| U24 | TAR | 0.05 | -0.05 |
| G25 | TAR | -0.06 | -0.05 |
| A26 | TAR | -0.28 | -0.26 |
| G27 | TAR | -0.90 | -0.97 |
| C28 | TAR | -0.45 | -1.08 |
| C29 | TAR | 0.52 | -0.17 |
| U30 | TAR | -0.05 | 0.04 |
| G31 | TAR | 0.12 | -0.09 |
| G32 | TAR | 0.10 | 0.03 |
| G33 | TAR | 0.01 | -0.01 |
| A34 | TAR | 0.16 | -0.05 |
| G35 | TAR | -0.52 | -0.87 |
| C36 | TAR | -0.40 | -0.70 |
| U37 | TAR | -0.36 | -0.59 |
| C38 | TAR | -0.35 | -0.14 |
| U39 | TAR | 0.07 | -0.10 |
| C40 | TAR | 0.04 | -0.02 |
| U41 | TAR | -0.08 | -0.15 |
| G42 | TAR | -0.38 | -0.32 |
| G43 | TAR | -0.19 | -0.13 |
| C44 | TAR | 0.07 | -0.09 |
| U45 | TAR | 0.08 | -0.11 |
| A46 | TAR | -0.05 | -0.41 |
| A47 | TAR | -0.04 | -0.21 |
| C48 | TAR | 0.17 | -0.62 |
| U49 | TAR | 0.09 | -0.05 |
| A50 | TAR | 0.03 | -0.17 |
| G51 | TAR | -0.02 | -0.18 |
| G52 | TAR | 0.01 | -0.08 |
| G53 | TAR | -0.14 | 0.11 |
| A54 | TAR | -0.18 | -0.39 |
| A55 | TAR | 0.04 | 0.08 |
| C56 | TAR | -0.09 | 0.01 |
| C57 | TAR | -0.44 | -0.76 |
| C58 | PolyA | 0.17 | 0.11 |
| A59 | PolyA | 0.25 | 0.13 |
| C60 | PolyA | 0.22 | 0.07 |
| U61 | PolyA | 0.27 | 0.10 |
| G62 | PolyA | 0.20 | 0.11 |
| C63 | PolyA | 0.24 | -0.07 |
| U64 | PolyA | 0.25 | -0.12 |
| U65 | PolyA | 0.34 | 0.15 |
| A66 | PolyA | 0.17 | -0.06 |
| A67 | PolyA | -0.02 | -0.10 |
| G68 | PolyA | 0.32 | -0.18 |
| C69 | PolyA | -0.01 | -0.11 |
| C70 | PolyA | -0.13 | 0.22 |
| U71 | PolyA | 0.12 | -0.02 |
| C72 | PolyA | 0.12 | 0.04 |
| A73 | PolyA | 0.06 | -0.10 |
| A74 | PolyA | 0.06 | 0.14 |
| U75 | PolyA | 0.17 | 0.09 |
| A76 | PolyA | 0.31 | -0.09 |
| A77 | PolyA | 0.02 | 0.10 |
| A78 | PolyA | -0.07 | -0.17 |
| G79 | PolyA | 0.24 | 0.64 |
| C80 | PolyA | -0.06 | 0.42 |
| U81 | PolyA | 0.07 | 0.39 |
| U82 | PolyA | 0.10 | 0.20 |
| G83 | PolyA | -0.06 | -0.20 |
| C84 | PolyA | -0.06 | -0.59 |
| C85 | PolyA | -0.40 | -0.48 |
| U86 | PolyA | 0.19 | -0.10 |
| U87 | PolyA | 0.09 | 0.00 |
| G88 | PolyA | 0.37 | -0.24 |
| A89 | PolyA | 0.28 | 0.35 |
| G90 | PolyA | 0.01 | -0.53 |
| U91 | PolyA | -0.05 | -0.25 |
| G92 | PolyA | 0.47 | 0.46 |
| C93 | PolyA | 0.27 | -0.26 |
| U94 | PolyA | 0.06 | 0.50 |
| C95 | PolyA | -0.07 | 0.64 |
| A96 | PolyA | 0.10 | -0.03 |
| A97 | PolyA | 0.22 | 0.07 |
| A98 | PolyA | -0.12 | -0.23 |
| G99 | PolyA | 0.03 | -0.23 |
| U100 | PolyA | -0.04 | 0.28 |
| A101 | PolyA | 0.57 | 0.20 |
| G102 | PolyA | 0.05 | -0.26 |
| U103 | PolyA | 0.08 | 0.14 |
| G104 | PolyA | 0.31 | -0.21 |
| U105 | U5 | 0.00 | -0.03 |
| G106 | U5 | -0.18 | 0.80 |

Extract of 5 entries:

With G52 (domain TAR) the assay gave 3G uncapped high-salt 0.01; 3G uncapped low-salt -0.08.
With U30 (domain TAR) the assay gave 3G uncapped high-salt -0.05; 3G uncapped low-salt 0.04.
With A101 (domain PolyA) the assay gave 3G uncapped high-salt 0.57; 3G uncapped low-salt 0.20.
With C72 (domain PolyA) the assay gave 3G uncapped high-salt 0.12; 3G uncapped low-salt 0.04.
With U24 (domain TAR) the assay gave 3G uncapped high-salt 0.05; 3G uncapped low-salt -0.05.